Compound potency records, mixed from different reports. Data source: NIAID ChemDB in PubChem.

Common to all: growth or infection tests; agent: HIV-1; method: luciferase; measure: EC50

ECn is the concentration giving n% inhibition of infection, replication or growth. Neighbouring rows are from separate reports.

Cc1cc(S(N)(=O)=O)ccc1NC(=O)COc1ccc(Cl)cc1C(=O)c1cc(F)cc(C(F)(F)F)c1 ; strain: IIIB ; cell line: HELA MAGI ; changes: RT-V106A Y181C ; result: 0.016 µM
N#CC(=C1CCN(C(=O)C(=O)c2c[nH]c3c(-c4ncco4)ccnc23)CC1)c1ccccc1 ; cell line: HeLa ; result: <1 µM
CCc1cccc2c(C(=O)C(=O)N3CCN(C(=O)c4ccccc4)C[C@H]3C)c[nH]c12 ; cell line: HeLa + HELA CD4+/CCR5 ; result: <10 µM
COc1ccc(N(C)C(=O)[C@H](Cc2cc(F)cc(F)c2)NC(=O)COc2nc3ccccc3n(CC(=O)N[C@@H](Cc3cc(F)cc(F)c3)C(=O)N(C)c3ccc(OC)cc3)c2=O)cc1 ; strain: NL4-3 ; cell line: MT-2 ; result: 0.12 µM
COc1ncc(OC)c2c(C(=O)C(=O)N3CCC(=C(c4ccccc4)c4cccc([N+](=O)[O-])c4)CC3)c[nH]c12 ; cell line: HeLa ; result: <1 µM
O=C(C(=O)N1CCN(C(=O)c2ccno2)CC1)c1c[nH]c2cccc(F)c12 ; cell line: HeLa + HELA CD4+/CCR5 ; result: <10 µM
COc1ccc(N(C)C(=O)[C@H](Cc2ccccc2)NC(=O)Cn2c(=O)n(CC(=O)N[C@@H](Cc3ccccc3)C(=O)N(C)c3ccc(OC)cc3)c3cc(F)ccc32)cc1 ; strain: NL4-3 ; cell line: MT-2 ; result: 0.08 µM
COc1ncc(OC)c2c(C(=O)C(=O)N3CCC(=C(C#CCO)c4ccccc4)CC3)c[nH]c12 ; cell line: HeLa ; result: <1 µM
CC(C)(C)OC(=O)Nc1ccccc1C(=O)N1CCN(C(=O)C(=O)c2c[nH]c3cccc(Cl)c23)CC1 ; cell line: HeLa + HELA CD4+/CCR5 ; result: ~10 µM
Cc1nc2cc(N(C)C(=O)[C@H](Cc3cc(F)cc(F)c3)NC(=O)NS(=O)(=O)N[C@@H](Cc3cc(F)cc(F)c3)C(=O)N(C)c3ccc4sc(C)nc4c3)ccc2s1 ; strain: NL4-3 ; cell line: MT-2 ; result: 0.19 µM
COc1cnc(-n2cncn2)c2[nH]cc(C(=O)C(=O)N3CCC(=C(C#N)c4ccccc4)CC3)c12 ; cell line: HeLa ; result: <1 µM
Cc1ccc(N(C)C(=O)[C@H](Cc2ccccc2)NC(=O)NS(=O)(=O)N[C@@H](Cc2ccccc2)C(=O)N(C)c2ccc(C)c(Cl)c2)cc1Cl ; strain: NL4-3 ; cell line: MT-2 ; result: 3.8 µM
C[C@@H]1CN(C(=O)c2ccccn2)CCN1C(=O)C(=O)c1c[nH]c2cccc(Cl)c12 ; cell line: HeLa + HELA CD4+/CCR5 ; result: <10 µM
O=C(N[C@@H](Cc1cc(F)cc(F)c1)c1ncccc1Br)NS(=O)(=O)N[C@@H](Cc1cc(F)cc(F)c1)c1ncccc1Br ; strain: NL4-3 ; cell line: MT-2 ; result: 7.27 µM
COc1ccc(Cl)c2[nH]cc(C(=O)C(=O)N3CCN(C(=O)c4ccccn4)C[C@H]3C)c12 ; cell line: HeLa + HELA CD4+/CCR5 ; result: <10 µM
COc1ncc(OC)c2c(C(=O)C(=O)N3CCC(=C(C#N)c4ccccc4)CC3)c[nH]c12 ; cell line: HeLa ; result: <1 µM
CN(C(=O)[C@H](Cc1ccccc1)NC(=O)NS(=O)(=O)N[C@@H](Cc1ccccc1)C(=O)N(C)c1ccc2c(c1)OCO2)c1ccc2c(c1)OCO2 ; strain: NL4-3 ; cell line: MT-2 ; result: 0.17 µM
CCC1CN(C(=O)C(=O)c2c[nH]c3c(C(=O)OC)cccc23)CCN1C(=O)c1ccccc1 ; cell line: HeLa + HELA CD4+/CCR5 ; result: <10 µM